From the supplement of paper PMC9931576
Human monoclonal antibodies against the spike receptor-binding domain (heavy:light variable regions). IC50 against pseudoviruses bearing the spike of naturally observed variants; lower = stronger; >10 µg/ml means not reached at the top dose. No active / inactive call. The stated detection limit is 0.0005 µg/ml; values near or below 0.001 µg/ml lie at the floor of the assay.

B1: BD56-1279 (protein)
chain 1: QVQLVQSGAEVRKPGSSVKVSCKASGGTFSSHVISWVRQAPGQGLEWMGKIIPVLDITDYAQKFQDRVTITADKSTSTVYMELSSLRSEDTAVFYCARHQNTVTTFGIGHYYGMDVWGQGTTVTVSS
chain 2: DIQMTQSPSTLSASVGDKVTITCRASQSISNWLAWYQQKPGKAPKLLIYEASSLQSGVPLRFSGSGSGTEFTLTISSLQPDDFATYYCQQYNSYPSFGLGTKVEIK
B2: BD56-1282 (protein)
chain 1: QVQLVQTGAEVKKPGSSVKVSCKTSGGLIINYAVSWVRQAPGQGLEWMGDIIPILDTTNYAQKFQGRVMISADKSTSTAYLELRSLRFEDTAVYYCAAGGQYCGGGSCYSSYFDYWGQGALVSVSP
chain 2: EIVLTQSPGTLSLSPGERATLSCRASQSISSSHLAWYQQKPGQAPRLLIYGASSRATGIPDRFSGSGSGTDFTLTISRLAPEDFAVYYCHQYGSSPQRTFGQGTKVEIK
B3: BD56-1284 (protein)
chain 1: EVYLVESGGGLIQPGGSLRLSCAASEIIVNRNYMTWVRQAPGKGLDWVSTVYSGGTTYYADSVKGRFTVSRDNSKNTMYLQMNSLRAEDTAVYYCARGELGMPFGMDVWGQGTTVTVSS
chain 2: QSVLTQPPSVSAASGQRVTISCSGSSSNIGDNYVSWYQQLPGTAPKLLIYDNDKRPSGIPDRFSGSKSGTSATLGITGLQTGDEADYYCGTWDSSLSAGLFGGGTRLTVL
B4: BD56-1286 (protein)
chain 1: QVQLQESGPGLVKPSQTLSLTCTVSGGSIGSGGYYWSWVRQHPGRGLDWIGYVFYSGSTFYNPSLRSRVTIAVDTSKNQFYLKLRSVTAADTAVYYCARDQGGSTWAPDAFDIWGQGTMVIVSS
chain 2: DIQMTQSPSSLSASAGDRITITCQASQDISNYLNWYQQKPGKAPKLLIYDASNLEKGVPSRFSGSGSGTYFTFTISSLQPEDFATYYCQQYDNLPLTFGGGTKVEIK
B5: BD56-1290 (protein)
chain 1: QITLKESGPTLVKPTQTLTLTCTFSGFSLSTSGVGVGWIRQPPGKALEWLALIYWDDDSRYSPSLKTRLTITKDTSKNQVVLTLTNMDPVDTATYYCGHFTIDMIVGYWGQGTLVTVSS
chain 2: QSALTQPASVSGSPGQSITISCTATSIDVGAFHYVSWYQHHPGKAPKLIIFDVTNRPSGVSNRFSGSKSGNTASLTISGLQAEDEADYYCSSYTDSTVVFGGGTKLTVL
B6: BD56-1293 (protein)
chain 1: QVQLVESGGGVVQPGRSLRLSCAASGFTLSRYVMHWVRQAPGKGLEWVADISSDGTMTNYADSVKGRFALSRDNSKNTLYLQMNSLRDDDTAIYYCARDTDQMIVVVLDYWGQGTLVTVSS
chain 2: DIQMTQSPSSLSASVGDRVTITCRASQSLSTYLNWYQQKPGKAPKLLIYAASTLQSGVPSRFSGSGSGTDFTLTISSLQPEDFATYYCQQSYIAPPLTFGGGTKLEIK

target: SARS-CoV-2 Omicron BA.1 spike pseudovirus; assay: pseudovirus neutralization IC50; higher = weaker neutralization
Description: (§1)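 Single-round VSV luciferase pseudovirus mixed with antibody dilutions for 1 h and put on Huh-7 cells for about a day; IC50 from the dose curve.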

| Binder | pseudovirus neutralization IC50 [µg/mL] |
| --- | --- |
| B1 | 0.0191 |
| B2 | 0.119 |
| B3 | 0.0337 |
| B4 | 0.0444 |
| B5 | 0.00215 |
| B6 | 4.29 |

target: SARS-CoV-2 Omicron BA.2 spike pseudovirus; assay: as above
Description: as §1

| Binder | pseudovirus neutralization IC50 [µg/mL] |
| --- | --- |
| B1 | 0.0126 |
| B2 | 0.0042 |
| B3 | 0.0242 |
| B4 | 0.0156 |
| B5 | 0.00101 |
| B6 | 2.75 |

target: SARS-CoV-2 Omicron BA.2.75 spike pseudovirus; assay: as above
Description: as §1

| Binder | pseudovirus neutralization IC50 [µg/mL] |
| --- | --- |
| B1 | 0.023 |
| B2 | 0.0217 |
| B3 | 0.532 |
| B4 | 0.0887 |
| B5 | 0.00223 |
| B6 | 1.33 |

target: SARS-CoV-2 Omicron BA.5 spike pseudovirus; assay: as above
Description: as §1

| Binder | pseudovirus neutralization IC50 [µg/mL] |
| --- | --- |
| B1 | > 10 |
| B2 | 3.09 |
| B3 | 0.13 |
| B4 | 0.0148 |
| B5 | 0.00145 |
| B6 | 2.65 |

target: SARS-CoV-2 Omicron BQ.1.1 spike pseudovirus; assay: as above
Description: as §1

| Binder | pseudovirus neutralization IC50 [µg/mL] |
| --- | --- |
| B1 | > 10 |
| B2 | 2.57 |
| B3 | 4.92 |
| B4 | > 10 |
| B5 | > 10 |
| B6 | 2.95 |

target: SARS-CoV-2 Omicron XBB spike pseudovirus; assay: as above
Description: as §1

| Binder | pseudovirus neutralization IC50 [µg/mL] |
| --- | --- |
| B1 | 3.3 |
| B2 | > 10 |
| B3 | 3 |
| B4 | > 10 |
| B5 | 0.966 |
| B6 | 4.12 |

target: SARS-CoV-2 early D614G spike pseudovirus; assay: as above
Description: as §1

| Binder | pseudovirus neutralization IC50 [µg/mL] |
| --- | --- |
| B1 | 0.0846 |
| B2 | 0.217 |
| B3 | 0.0046 |
| B4 | 0.066 |
| B5 | 0.001 |
| B6 | > 10 |
